Measured values published in patent US11337988B2, “Use of ouabain antagonists to inhibit viral infection” (priority 2018, dated 2022).

Test system: RSV-GFP
Type: cell-based, human respiratory syncytial virus (RSV)
Conditions: A549 pre-treated overnight, 25 nM ouabain or 20 μM PST2238, RSV-GFP MOI=1, harvested 24 h p.i.

| Structure (SMILES) | reduction of virus yield |
| --- | --- |
| C[C@]12CC[C@H](O)C[C@H]1CC[C@@H]1[C@@H]2CC[C@]2(C)[C@@](O)(c3ccoc3)CC[C@]12O [PST2238, (3β,5β,14β)-21,23-Epoxy-24-norchola-20,22-diene-3,14,17-triol] | 2.0 log10 |
| C[C@@H]1O[C@@H](O[C@H]2C[C@@H](O)[C@]3(CO)[C@@H]4[C@@H](CC[C@]3(O)C2)[C@@]2(O)CCC(C3=CC(=O)OC3)[C@@]2(C)C[C@@H]4O)[C@H](O)[C@H](O)[C@H]1O (stereo partly drawn) [ouabain, (1β,3β,5β,11α)-3-[(6-Deoxy-α-L-mannopyranosyl)oxy]-1,5,11,14,19-pentahydroxycard-20(22)-enolide] | ~3.0 log10 |
